Anti-infective test results gathered from many reports (values: NIAID ChemDB through PubChem).

Shared fields: target-level tests

Blank or dashed fields: not listed here.

{"structure": "CC(CNC(=O)[C@@H]1CSCN1C(=O)[C@@H](O)[C@H](Cc1ccccc1)NC(=O)[C@H](CS(C)(=O)=O)NC(=O)COc1cccc2ccccc12)C(N)=O", "measure": "inhibition", "protein": "Protease", "tested at": "0.05 µM", "agent": "HIV-1", "value": "53.5%"}
{"structure": "CS(=O)(=O)c1ccc(CNC(=O)c2cn3c(c(O)c2=O)C(=O)N(Cc2ccc(F)cc2)CC3)cc1", "measure": "IC50", "read by": "ELISA", "protein": "Integrase", "agent": "HIV-1", "value": "0.01–0.1 µM"}
{"structure": "Nc1ccn([C@@H]2CS[C@H](COP(=O)(O)OP(=O)(O)OP(=O)(O)O)O2)c(=O)n1", "measure": "fold resistance", "read by": "radiometric", "protein": "Reverse transcriptase", "agent": "HIV", "changes": "RT-K65R", "value": "1.7"}
{"structure": "COC(C)(C)C#Cc1ccc(NC(=O)CSc2nnnn2-c2ccc(C3CC3)cc2Cl)c(Cl)c1", "measure": "IC50", "read by": "PicoGreen / fluorescence", "protein": "Reverse transcriptase", "agent": "HIV-1", "changes": "RT-K103 Y181C", "value": "<1 µM"}
{"structure": "CC(C)(C)NC(=O)[C@H]1N(C(=O)[C@@H](O)[C@H](Cc2ccccc2)NC(=O)[C@H](CC(N)=O)NC(=O)COc2cccc(-c3ccccc3)c2)CSC1(C)C", "measure": "inhibition", "protein": "Protease", "tested at": "0.05 µM", "agent": "HIV-1", "value": "98.9%"}
{"structure": "Cc1cc(C)c(-n2nnnc2SCC(=O)Nc2ccc(-c3ccc(C(C)(C)C(=O)O)cc3)cc2Cl)c(Cl)c1", "measure": "IC50", "read by": "PicoGreen / fluorescence", "protein": "Reverse transcriptase", "agent": "HIV-1", "changes": "RT-K103 Y181C", "value": "<1 µM"}
{"structure": "CC(C)(C)C(=O)c1cn2c(c(O)c1=O)C(=O)N(Cc1ccc(Cl)c(Cl)c1)CC2", "measure": "IC50", "read by": "ELISA", "protein": "Integrase", "agent": "HIV-1", "value": "<0.01 µM"}
{"structure": "CCCC[C@H](NC(=O)[C@H](C)NC(=O)[C@H](CCC(=O)O)NC[C@H](Cc1ccccc1)NC(=O)[C@H](CC(C)C)NC(=O)[C@@H](NC(=O)[C@@H](N)CCCN=C(N)N)C(C)C)C(N)=O", "measure": "IC50", "read by": "HPLC", "protein": "Protease", "agent": "HIV", "changes": "PR-N88D", "value": ">0.075 µM"}
{"structure": "CCOCn1c(Sc2ccccc2)c(CC)c(=O)[nH]c1=O", "measure": "fold resistance", "read by": "nucleotide incorporation", "protein": "Reverse transcriptase", "agent": "HIV", "changes": "RT-F61L", "value": "0.5"}
{"structure": "C[C@@H](O)[C@H](NC(=O)COc1cccc2ccccc12)C(=O)N[C@@H](Cc1ccccc1)[C@H](O)C(=O)N1CSC[C@H]1C(=O)NC(C)(C)C", "measure": "inhibition", "protein": "Protease", "tested at": "0.05 µM", "agent": "HIV-1", "value": "45.3%"}
{"structure": "CN1CCN(C(=O)c2ccc(NC(=O)CSc3nnnn3-c3ccc(C(C)(C)C)cc3Cl)c(Cl)c2)CC1", "measure": "IC50", "read by": "PicoGreen / fluorescence", "protein": "Reverse transcriptase", "agent": "HIV-1", "changes": "RT-K103 Y181C", "value": "<1 µM"}
{"structure": "NC(=O)C[C@H](NC(=O)OCc1ccccc1)C(=O)N[C@@H](Cc1ccccc1)[C@H](O)C(=O)N1CCC[C@H]1C(=O)NC1CCCCC1", "measure": "inhibition", "protein": "Protease", "tested at": "5 µM", "agent": "HIV-1", "value": "90.4%"}
{"structure": "O=c1c(-c2ccncn2)cn2ccn(Cc3ccc(F)c(Cl)c3)c(=O)c2c1O", "measure": "IC50", "read by": "ELISA", "protein": "Integrase", "agent": "HIV-1", "value": "<0.01 µM"}
{"structure": "O=C(CSc1nnnn1-c1ccc(C2CC2)cc1Cl)Nc1ccc(-c2ccc(OCCN3CCCC3)cc2)cc1Cl", "measure": "IC50", "strain": "WT", "read by": "PicoGreen / fluorescence", "protein": "Reverse transcriptase", "agent": "HIV-1", "value": "<1 µM"}
{"structure": "CC(C)(C)C(O)c1cc(=O)c(O)c2n1CCN(Cc1ccc(Cl)c(Cl)c1)C2=O", "measure": "IC50", "read by": "ELISA", "protein": "Integrase", "agent": "HIV-1", "value": "0.01–0.1 µM"}
{"structure": "CC[C@H](C)[C@H](NC(=O)[C@@H]1CCCN1C(=O)[C@H](O)[C@H](Cc1ccccc1)NC(=O)[C@H](CO)NC(=O)Cc1ccccc1)C(=O)N[C@H](C(N)=O)C(C)C", "measure": "inhibition", "protein": "Protease", "tested at": "1000 µM", "agent": "HIV-1", "value": "97.2%"}
{"structure": "CN(C)c1ccc(CNC(=O)c2cn3c(c(O)c2=O)C(=O)N(Cc2ccc(F)cc2)CC3)cc1", "measure": "IC50", "read by": "ELISA", "protein": "Integrase", "agent": "HIV-1", "value": "0.01–0.1 µM"}
{"structure": "CC(C)(C#Cc1ccc(NC(=O)CSc2nnnn2-c2cc(C(F)(F)F)cc(C3CC3)c2Cl)c(Cl)c1F)NC(=O)CN1CCNCC1", "measure": "IC50", "read by": "PicoGreen / fluorescence", "protein": "Reverse transcriptase", "agent": "HIV-1", "changes": "RT-K103 Y181C", "value": "<1 µM"}
{"structure": "O=C1c2c(O)c(=O)c(-c3nccs3)cn2CCN1Cc1cc(Cl)cc(OCc2ccccc2)c1", "measure": "IC50", "read by": "ELISA", "protein": "Integrase", "agent": "HIV-1", "value": "0.01–0.1 µM"}
{"structure": "CS(=O)(=O)C[C@H](NC(=O)COc1cccc2ccccc12)C(=O)N[C@@H](Cc1ccccc1)[C@H](O)C(=O)N1CSC[C@H]1C(=O)NCCCC(N)=O", "measure": "inhibition", "protein": "Protease", "tested at": "0.05 µM", "agent": "HIV-1", "value": "35%"}
{"structure": "CC(C)C(=O)c1cn2c(c(O)c1=O)C(=O)N(Cc1ccc(Cl)c(Cl)c1)CC2", "measure": "IC50", "read by": "ELISA", "protein": "Integrase", "agent": "HIV-1", "value": "<0.01 µM"}
{"structure": "CC(C)(C#Cc1ccc(NC(=O)CSc2nnnn2-c2cc(C(F)(F)F)ccc2Cl)c(Cl)c1)NC(=O)c1ncccn1", "measure": "IC50", "strain": "WT", "read by": "PicoGreen / fluorescence", "protein": "Reverse transcriptase", "agent": "HIV-1", "value": "<1 µM"}

For reference, 3 entries again:

structure,measure,strain,read by,protein,tested at,agent,changes,value
CC(C)C(=O)c1cn2c(c(O)c1=O)C(=O)N(Cc1ccc(Cl)c(Cl)c1)CC2,IC50,,ELISA,Integrase,,HIV-1,,<0.01 µM
CN1CCN(C(=O)c2ccc(NC(=O)CSc3nnnn3-c3ccc(C(C)(C)C)cc3Cl)c(Cl)c2)CC1,IC50,,PicoGreen / fluorescence,Reverse transcriptase,,HIV-1,RT-K103 Y181C,<1 µM
Cc1cc(C)c(-n2nnnc2SCC(=O)Nc2ccc(-c3ccc(C(C)(C)C(=O)O)cc3)cc2Cl)c(Cl)c1,IC50,,PicoGreen / fluorescence,Reverse transcriptase,,HIV-1,RT-K103 Y181C,<1 µM

ICn is the concentration giving n% inhibition. Fold resistance has wild type as its base. Conditions beyond the fields shown may differ between rows. Inhibition is in % at the dose shown (toxicity tests: loss of growth or viability). Two numbers with a dash give a range or band.